# From patent publication US20090162366A1 (KIRIN PHARMA, published 2009)
# Legend:
# [1] = molecular target: T1, M2 expressed on MDCK cells infected with influenza A/HK/8/68 (influenza A virus A/HK/8/68); experiment: cell ELISA on infected MDCK cells
# T1 construct: whole, on cells
# M2DLTGS = M2DLTGS (influenza A virus, A/Hong Kong/485/97 …); experiment: peptide ELISA, Ab 10 µg/ml (+ >50%, W 10~50% of O.D. on M2)
Binder,EC50 [1] [µg/mL],binding result (M2DLTGS)
"C40G4 (antibody, V domains shown) VH: QLQLQESGPGLVKPSETLSLTCTVSGGSISSSFYYCGWIRQPPGKGLEWIGSIYYRGSTYYNPSLKSRVTISVDTSKNQFSLKLSSVTAADTAVYYCARRVTMVRGVKGDYFDYWGQGTLVTVSS VL: DIQMTQSPSSLSASVGDRVTITCRASQGISSWLAWYQQKPEKVPKSLIYAASSLQSGVPSRFSGSGSGTDFTLTISSLQPEDFATYYCQQYNYYPLTFGGGTKVEIKR",0.841,–
"C40G1 (antibody, V domains shown) VH: QLQLQESGPGLVKPSETLSLTCTVSGGSISSSFYYCGWIRQPPGKGLEWIGSIYYRGSTYYNPSLKSRVTISVDTSKNQFSLKLSSVTAADTAVYYCARRVTMVRGVKGDYFDYWGQGTLVTVSS VL: DIQMTQSPSSLSASVGDRVTITCRASQGISSWLAWYQQKPEKVPKSLIYAASSLQSGVPSRFSGSGSGTDFTLTISSLQPEDFATYYCQQYNYYPLTFGGGTKVEIKR",0.0971,binds
"N547 (antibody, V domains shown) VH: not shown VL: QSVLTQPPSMSAAPGQKVTISCSGSSSNIGNNYISWYQQLPGTAPKVLIYDNNKRPSGIPDRFSGSKSGTSATLGITGLQTGDEADYYCGSWDSSLSAGVFGTGTKVTVLG",0.466,–
"L66 (antibody, V domains shown) VH: EVQLVESGGGVVRPGGSLRLSCAASGFTFDDYGMSWVRQAPGKGLEWVSGINWNGGSTGYADSVKGRFTISRDNAKNSLYLQMNSLRAEDTALYYCARDRVTMVRGVIMDYYGMDVWGQGTTVTVSS VL: QTVVTQEPSLTVSPRGTVTLTCSSSTGAVTSGYYPGWFQLKPGQAPMSLIYSARKKHSWTPARFSGSLLGGKAALTLSGVQPEDEAEYYCLLYYGGAYVFGTGTKVTVLG",0.229,–
